Laboratory results as given in PMC2596486 (PLoS ONE, 2008).

Biological target: rHA subtype H3 (A/Wyoming/3/03) (Influenza A virus A/Wyoming/3/2003 …, UniProt Q595Z7, strain)
Experiment: ELISA
Details: both partners purified

B1: CR6323 human IgG1 (antibody, V domains shown)
VH: EVQLVESGAEVKKPGSSVKVSCKASGGTFSSYGISWVRQAPGQGLEWMGDIIGMFGSTNYAQNFQGRLTITADESTSTAYMELSSLRSEDTAVYYCARSSGYYPAYLPHWGQGTLVTVSS
VL: not shown
binding result: no binding (tested: 5 µg/ml IgG1)
